Anti-infective test results gathered from many reports (values: NIAID ChemDB through PubChem).

Common to all: cytotoxicity tests; cell line: PBMC; read-out: CC50

CCn is the concentration with n% toxicity to the cells.

COc1ncccc1NC(=O)NCC1CCc2cccnc2N1 ; result: 50 µM
Nc1ncnc2c1ncn2[C@@H]1C=C(CO)[C@@H](O)[C@H]1O ; result: 10 µM
Cc1c(Cl)cccc1NC(=O)NCCc1ccc2c(n1)NCCC2 ; result: 2.2 µM
CN1CCN(c2nc(-c3cccs3)cc(-c3cccs3)n2)CC1 ; result: 100 µM
Cc1nnc2c3ccccc3c(N3CCC4CCCCC4C3)nn12 ; result: 51.9 µM
Cc1ccc(-c2cccc(-c3ccc(CNCCN(C)C)cc3)n2)cc1 ; result: 10 µM
O=S(=O)(NCCc1ccc2c(n1)NCCC2)c1cccc2cccnc12 ; result: 50 µM
Oc1cc2c(cc1O)CN(c1nn3c(C4CC4)nnc3c3ccccc13)CC2 ; result: 5.57 µM
CN(C)CCSc1cccc(-c2cc(-c3cccc(SCCN(C)C)c3)ncn2)c1 ; result: 10 µM
Cc1nnc2c3ccccc3c(N3CCc4ccc(N)cc4C3)nn12 ; result: 4.15 µM
CN1CCN(CCSc2nc(-c3ccccc3)c3ccccc3n2)CC1 ; result: 100 µM
Cc1nnc2c3ccccc3c(N3CCc4ccccc4C3)nn12 ; result: 37.1 µM
Cc1c(-c2cccc(SCCN(C)C)c2)ncnc1-c1cccc(SCCN(C)C)c1 ; result: 10 µM
N#Cc1ccc2c(c1)CN(c1nn3c(C4CC4)nnc3c3ccccc13)CC2 ; result: 4.79 µM
Nc1nccc2c1ncn2[C@@H]1O[C@H](CO)[C@@H](O)[C@H]1O ; result: 9.91 µM

For reference, 2 entries again:

structure	result
CN(C)CCSc1cccc(-c2cc(-c3cccc(SCCN(C)C)c3)ncn2)c1	10 µM
COc1ncccc1NC(=O)NCC1CCc2cccnc2N1	50 µM

Conditions beyond the fields shown may differ between rows.